Results reported in PubChem BioAssay AID977624 (Broad Institute, 2014).
The entries are a selection whose mix differs from that of the whole data set. Inconclusive results are not listed. The source made the active and inactive calls.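 The calls were made as follows: active = compound lowering the normal-ribosome reporter at least twice as much as the humanized-ribosome reporter, growth loss under a set limit; inconclusive = no clear call, values can overlap the other calls; inactive = the rest.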

test: wild-type E. coli growth inhibition versus h34 humanized strain – h34 mutant RFP, wild-type GFP, cherry-pick, dose response (AID 977624); settings: fluorescence, 24 h; at 50 µM (top of the series)

Q: For O=[N+]([O-])c1cc([N+](=O)[O-])c(Nc2ccccn2)c([N+](=O)[O-])c1, which activity change, negative = inhibition is on record?
A: The activity change, negative = inhibition was inactive: 12.4.

Q: For O=[N+]([O-])c1cc([N+](=O)[O-])c(Nc2nnnn2CCO)c([N+](=O)[O-])c1, which activity change, negative = inhibition is on record?
A: The activity change, negative = inhibition was inactive: 15.7.
